Results on two substances are retold here after paper PMC11796124, “Inhibition of STING-mediated type I IFN signaling by African swine fever virus DP71L” (2025).

The target of the experiment is DP71L-Flag (Flag-tagged ASFV DP71L), expressed in HEK293T cells. Put plainly: Strep pull-down, immunoblot band densitometry. To be noted: HEK293T cells co-transfected with DP71L-Flag and Strep-tagged STING; parent: est. 0.52; read off a plot. (Immunoblotting shows a protein as a band on a membrane.)

With “STING-Strep (Strep-tagged STING) (from UniProt Q86WV6) S366A”, the response (Relative IntDEN to β-actin) amounted to 0.47.
The figure for “STING-Strep (Strep-tagged STING) (from UniProt Q86WV6) P371Q” is 0.18.
